{"source": "paper PMC5415358", "about": "“Hybrid Mass Spectrometry Approaches to Determine How L-Histidine Feedback Regulates the Enzyzme MtATP-Phosphoribosyltransferase” (Structure(London, England:1993), 2017)", "molecular_target": "the molecule itself", "assay": "native MS"}
{"protein": "MtATP-phosphoribosyltransferase (enzyme) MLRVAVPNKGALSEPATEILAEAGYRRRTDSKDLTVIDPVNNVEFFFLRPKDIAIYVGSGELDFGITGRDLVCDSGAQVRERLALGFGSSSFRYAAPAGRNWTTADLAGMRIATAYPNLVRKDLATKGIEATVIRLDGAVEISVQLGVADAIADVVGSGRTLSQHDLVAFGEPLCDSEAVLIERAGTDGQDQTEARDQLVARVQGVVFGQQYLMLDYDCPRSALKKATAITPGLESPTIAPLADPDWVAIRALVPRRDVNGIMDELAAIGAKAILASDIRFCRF", "values": [{"measurement": "stoichiometry N", "result": 2}]}
